Test results from patent publication US7846435 (TEIJIN, dated 2010).

What was measured:
Experiment in all cases: cell-based or functional assay
[1] = target: VT2v of E. coli 0157 V601 (E. coli)
[2] = target: VT2vh of E. coli 0157 V354 (E. coli)
[3] = target: VT2vh of E. coli 0157 V50 (E. coli)
VT2vh = VT2vh (Escherichia coli)

Binder | ED50 (µg/ml), in vitro neutralizing assay [1] [µg/mL] | ED50 (µg/ml), in vitro neutralizing assay [2] [µg/mL] | ED50 (µg/ml), in vitro neutralizing assay [3] [µg/mL] | EC50 (read off the curve) (VT2vh) [ng/mL]
humanized VTm1.1 antibody (HuVTm1.1) (antibody, V domains shown) VH: EVQLVESGGGLVQPGGSLRLSCAASGFTFSSYGMSWVRQAPGKGLEWVATISTGGSYTYYPDSVKGRFTISRDNSKNTLYLQMNSLRAEDTAVYYCARRGDAWGNLDYWGQGTLVTVSS VL: EIVLTQSPATLSVSPGERATLSCRASQTISNNLHWYQQKPGQAPRLLIKSASQSISGIPARFSGSGSGTDFTLTISSLESEDFAVYYCQQSYSWPLTFGQGTKVEIK | 0.32 | 0.39 | 0.36 | –
mouse VTm1.1 antibody (MuVTm1.1) (antibody, V domains shown) VH: EVQLVESGGGLVKPGGPLKLSCAASGFTFSSYGMSWVRQTPEKRLEWVATISTGGSYTYYPDSVKGRFTISRDNAKNALYLQMSSLRSEDTAIYYCARRGDAWGNLDYWGQGTSVTVSS VL: DVVLTQSPATLSVTPGDSVSLSCRASQTISNNLHWYQHKSHESPRLLIKSASQSISGIPSRFSGSGSGTDFTLSINSVETEDFGMYFCQQSYSWPLTFGAGTKLELK | – | – | – | ~200
